The target of the assay is SARS-CoV-2 3CL-protease (Severe acute respiratory syndrome coronavirus 2, UniProt P0DTD1). Briefly: SARS-CoV-2 3C-like (3CL) protease fluorescence assay (FRET). To be noted: read-out: FRET IC50; recombinant SARS-CoV-2 3CL-protease 10 nM, 30 min preincubation, run in duplicate. Here is the method: SARS-CoV-2 3C-like (3CL) protease fluorescence assay (FRET): Recombinant SARS-CoV-2 3CL-protease was expressed and purified. TAMRA-SITSAVLQSGFRKMK-Dabcyl-OH peptide 3CLpro substrate was synthesized. Black, low volume, round-bottom, 384 well microplates were used. In a typical assay, 0.85 μL of test compound was dissolved in DMSO then incubated with SARS-CoV-2 3CL-protease (10 nM) in 10 μL assay buffer (50 mM HEPES [pH 7.5], 1 mM DTT, 0.01% BSA, 0.01% Triton-X 100) for 30 min at RT. Next, 10 μL of 3CL-protease substrate (40 μM) in assay buffer was added and the assays were monitored continuously for 1 h in an Envision multimode plate reader operating in fluorescence kinetics mode with excitation at 540 nm and emission at 580 nm at RT. No compound (DMSO only) and no enzyme controls were routinely included in each plate. All experiments were run in duplicate.
Data Analysis: SARS-CoV-2 3CL-protease enzyme activity was measured as initial velocity of the linear phase (RFU/s) and normalized to controlled samples DMSO (100% activity) and no enzyme (0% activity) to determine percent residual activity at various concentrations of test compounds (0-10 μM). Data were fitted to normalized activity (variable slope) versus concentration fit in GraphPad Prism 7 to determine IC50. All experiments were run in duplicate, and IC50 ranges are reported as follows: A<0.1 μM; B 0.1-1 μM; C>1 μM.

As a reminder, the IC50 is the concentration that gives 50% inhibition.

Take `CC(C)(C)C[C@H](NC(=O)C(=O)NC12CC3CC(CC(C3)C1)C2)C(=O)N1C[C@]2(C[C@H]1C#N)C(=O)Nc1ccccc12`: the IC50 was less than 0.1 µM.
